Measured data: PubChem BioAssay AID504761 (Drosophila RNAi Screening Center, 2011)
Purpose: 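Genome-wide fly cell screen for genes dengue virus requires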 (primary screen). System: D.Mel-2 cells from Drosophila. Reagent: long dsRNA against Drosophila genes. Challenge: infection with dengue virus type 2; dose and infection time not stated. Measurement: 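Per well on two replicate plates, imaging gave the percent of cells positive for viral envelope protein, ranked by infection, and a nuclear count of cells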. Direction: infection score: higher = more virus-infected cells; cell count: higher = more cells in the well. Call rule: 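Low infection ranks in the two replicates (chance level up to 0.065) followed by a retest with a 1.5-fold or larger significant decrease, p below 0.05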. Calls: active = confirmed: knock-down lowers infection; inactive = not picked or not confirmed.
The screen tested about 22,000 reagents; below is an unselected part of those with a known target gene and a result. Of all reagents, 116 (0.52%) were called active. 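Calls depend on retest data that are not deposited; infection was ranked per plate without normalising between plates; the unit of the infection score is not given.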 The raw values are shown without normalisation. The numbers tell different reagents against one gene apart. A plus sign joins genes that one reagent is predicted to hit. The record does not give: the amount of reagent, the time to read-out.

Knock-down of Rtnl2 #1 came out at: infection score, replicate 1 = 5.71; infection score, replicate 2 = 12.7; cell count, replicate 1 = 6672; cell count, replicate 2 = 2497; inactive. Rtnl2 #2 showed infection score, replicate 1 = 1.59; infection score, replicate 2 = 3.2; cell count, replicate 1 = 6106; cell count, replicate 2 = 6313; inactive. Against Rtnl2 #3, the entry reads infection score, replicate 1 = 10.6; infection score, replicate 2 = 3.51; cell count, replicate 1 = 5967; cell count, replicate 2 = 6291; inactive. aub #1 gave infection score, replicate 1 = 16.5; infection score, replicate 2 = 7.54; cell count, replicate 1 = 5804; cell count, replicate 2 = 6352; inactive. Silencing of aub #2 resulted in: infection score, replicate 1 = 2.73; infection score, replicate 2 = 8.18; cell count, replicate 1 = 6455; cell count, replicate 2 = 6065; inactive. lky #1 showed infection score, replicate 1 = 7.72; infection score, replicate 2 = 0.64; cell count, replicate 1 = 5916; cell count, replicate 2 = 5904; inactive.

For lky #2 the deposit lists infection score, replicate 1 = 11.6; infection score, replicate 2 = 14.8; cell count, replicate 1 = 6167; cell count, replicate 2 = 7084; inactive. After knock-down of List the results were infection score, replicate 1 = 1.78; infection score, replicate 2 = 0.55; cell count, replicate 1 = 6131; cell count, replicate 2 = 6604; inactive. Knock-down of CG13001 came out at: infection score, replicate 1 = 4.45; infection score, replicate 2 = 12.1; cell count, replicate 1 = 6474; cell count, replicate 2 = 6106; inactive. With knock-down of CG3040, the record shows infection score, replicate 1 = 1.71; infection score, replicate 2 = 0.54; cell count, replicate 1 = 5923; cell count, replicate 2 = 555; inactive. CG2930 #1 scored infection score, replicate 1 = 5.63; infection score, replicate 2 = 2.25; cell count, replicate 1 = 6622; cell count, replicate 2 = 6660; inactive. CG2930 #2 scored infection score, replicate 1 = 2.66; infection score, replicate 2 = 1.58; cell count, replicate 1 = 6317; cell count, replicate 2 = 5893; inactive.

Mettl14 scored infection score, replicate 1 = 1.33; infection score, replicate 2 = 4.02; cell count, replicate 1 = 6600; cell count, replicate 2 = 5742; inactive. Knock-down of ScpX resulted in: infection score, replicate 1 = 17.9; infection score, replicate 2 = 8.64; cell count, replicate 1 = 6127; cell count, replicate 2 = 5981; inactive. With knock-down of CG17544 #1 the results were infection score, replicate 1 = 11.7; infection score, replicate 2 = 19.5; cell count, replicate 1 = 6626; cell count, replicate 2 = 6309; inactive. Depletion of CG17544 #2 gave: infection score, replicate 1 = 0.96; infection score, replicate 2 = 3.19; cell count, replicate 1 = 5524; cell count, replicate 2 = 6105; inactive. Rpn3 #1 gave infection score, replicate 1 = 8.79; infection score, replicate 2 = 11.5; cell count, replicate 1 = 4016; cell count, replicate 2 = 4713; inactive. Rpn3 #2 gave infection score, replicate 2 = 8.72; cell count, replicate 1 = 362; cell count, replicate 2 = 1513; inactive.

Against Naam, the entry reads infection score, replicate 1 = 7.79; infection score, replicate 2 = 3.78; cell count, replicate 1 = 5573; cell count, replicate 2 = 6981; inactive. For CG11170 #1, the values are infection score, replicate 1 = 11; infection score, replicate 2 = 16.9; cell count, replicate 1 = 6371; cell count, replicate 2 = 5952; inactive. CG11170 #2 showed infection score, replicate 2 = 12.5; cell count, replicate 1 = 373; cell count, replicate 2 = 6398; inactive. With knock-down of Nxf3 the results were infection score, replicate 1 = 24.8; infection score, replicate 2 = 4.68; cell count, replicate 1 = 2609; cell count, replicate 2 = 6669; inactive. Depletion of Ir67c came out at: infection score, replicate 1 = 3.35; infection score, replicate 2 = 1.35; cell count, replicate 1 = 6875; cell count, replicate 2 = 6522; inactive. Silencing of CG17855 gave: infection score, replicate 1 = 0.28; cell count, replicate 1 = 712; cell count, replicate 2 = 540; inactive.

Nf-YB showed infection score, replicate 2 = 9.64; cell count, replicate 1 = 501; cell count, replicate 2 = 6443; inactive. Against Ir21a the deposit lists infection score, replicate 1 = 1.45; infection score, replicate 2 = 11.9; cell count, replicate 1 = 6202; cell count, replicate 2 = 6266; inactive. Against CG15386 + CG42371 #1, the entry reads infection score, replicate 1 = 6; infection score, replicate 2 = 8.41; cell count, replicate 1 = 5884; cell count, replicate 2 = 6328; inactive. With knock-down of CG15386 + CG42371 #2, the screen gave infection score, replicate 1 = 2.54; infection score, replicate 2 = 6.01; cell count, replicate 1 = 5868; cell count, replicate 2 = 5677; inactive.

2 neighbouring records from above, quoted:
CG15386 + CG42371 #1 | infection score, replicate 1: 6; infection score, replicate 2: 8.41; cell count, replicate 1: 5884; cell count, replicate 2: 6328; Outcome: inactive
CG15386 + CG42371 #2 | infection score, replicate 1: 2.54; infection score, replicate 2: 6.01; cell count, replicate 1: 5868; cell count, replicate 2: 5677; Outcome: inactive
